Test results taken from publication PMC7997285, “The Alphaviral Capsid Protein Inhibits IRAK1-Dependent TLR Signaling” (2021).

Target: human IRAK1 fused to the N-terminal Nanoluc fragment N67 (human) (UniProt P51617)
Experiment: split reporter (BiFC, NanoBiT)

EEEV capsid protein fused to the C-terminal Nanoluc fragment C67 (natural protein)
fold Nanoluc activity over control reactions: 20 fold
